Test results from US20260069689A1, “ANTI-SARS-COV-2-SPIKE GLYCOPROTEIN ANTIBODIES AND ANTIGEN-BINDING FRAGMENTS” (Regeneron, published 2026).

Experiments:
[1] = molecular target: T1, SARS-CoV2 Spike ecto foldon Trimer expressed with a C-terminal myc-myc-hexahistidine (SARS-CoV-2, UniProt P0DTC2 14-1213); assay: SPR Biacore, mAb captured by anti-hFc, 25C
T1 construct: extracellular domain

[2] = molecular target: T1, SARS-CoV2 Spike ecto foldon Trimer …; assay: SPR Biacore, mAb captured by anti-hFc, 37C
[3] = molecular target: T2, SARS-COV-2 RBD extracellular domain expressed with a C-terminal mouse IgG2a Fc (SARS-CoV-2); assay: Biacore SPR, mAb captured on anti-hFc, 37 C
[4] = molecular target: T2, SARS-COV-2 RBD extracellular domain …; assay: Biacore SPR, mAb captured on anti-hFc, 25 C

Binder | Spike trimer.their bound at 50 nM [1] | Spike trimer.their bound at 50 nM [2] | RBD mFc dimer bound at 50 nM [3] | RBD mFc dimer bound at 50 nM [4]
mAb14312 (antibody, V domains shown) VH: EVQLVESGGGLVQPGGSLRLSCAASGFTVSRSYMTWVRQAPGKGLEWVSVIFTGGRTDHADSVKGRFTISRHNSKNTLYLQMNSLRTEDTAVYYCARVAIVGATGAFDIWGQGTMVTVSS VL: QSVLTQPPSVSGAPGQRVTISCTGSSSNIGAGDDVHWYQQLPGTAPKLLIYGNSNRPSGVPDRFSGSKSGTSASLAITGLQAEDEADYYCQSYDSSLSGSVVFGGGTKLTVLG [mAb14312, listing 1 of 2 here] | 393 RU | 500 RU | – | –
mAb14260 (antibody, V domains shown) VH: EVQLVESGGGLVQPGGSLRLSCAASGFTFSIYEMNWVRQAPGKGLEWVSYITSSGFTIYYADSVKGRFTISRDNAKNSLYLQMHSLRAEDTAVYYCATSSSSGYYFDYWGQGTLVTVSS VL: not shown [mAb14260, listing 1 of 2 here] | 378 RU | 495 RU | – | –
mAb14284 (antibody, V domains shown) VH: QITLKESGPTLVKPTQTLTLTCTFSGFSFSTSGVGVGWIRQPPGKTLEWLALIYWDDDKRYSPSLKSRLTITKDTSKNQVVLTMTNMDPVDTATYFCAHHGIPTIFGYWGQGALVTVSS VL: QSALTQPASVSGSPGQSITISCTGTSSDLGVFNYVSWYQQHPGKAPKLMIYEVTNRPSGVSNRFSGSKSGNTASLTISGLQAEDEADYYCSSYTTSSTVFGGGTKLTVLG [mAb14284, listing 1 of 2 here] | 469 RU | 631 RU | – | –
mAb14258 (antibody, V domains shown) VH: QLQLQESGPGLVKPSETLSLICTGSGDSISSSHYYWGWIRQPPGKGLEWIGSTYFSGSTYYNPSLKSRVSISVDTSKNQVSLKLISVTAADTAVYYCAREMGATLGDYWGPGTLVTVSS VL: QSVLTQPPSASGTPGQRVTISCSGSSSNIGNNYVYWYQQFPGTTPRLLIYRNNERPSGVPDRFSGSKSGTSASLVISGLRSEDEADYYCAAWDDSLSAHYVFGTGTKVTVLG [mAb14258, listing 1 of 2 here] | 406 RU | 524 RU | – | –
mAb14312 (antibody, V domains shown) VH: EVQLVESGGGLVQPGGSLRLSCAASGFTVSRSYMTWVRQAPGKGLEWVSVIFTGGRTDHADSVKGRFTISRHNSKNTLYLQMNSLRTEDTAVYYCARVAIVGATGAFDIWGQGTMVTVSS VL: QSVLTQPPSVSGAPGQRVTISCTGSSSNIGAGDDVHWYQQLPGTAPKLLIYGNSNRPSGVPDRFSGSKSGTSASLAITGLQAEDEADYYCQSYDSSLSGSVVFGGGTKLTVLG [mAb14312, listing 2 of 2 here] | – | – | 422 RU | 349 RU
mAb14260 (antibody, V domains shown) VH: EVQLVESGGGLVQPGGSLRLSCAASGFTFSIYEMNWVRQAPGKGLEWVSYITSSGFTIYYADSVKGRFTISRDNAKNSLYLQMHSLRAEDTAVYYCATSSSSGYYFDYWGQGTLVTVSS VL: not shown [mAb14260, listing 2 of 2 here] | – | – | 408 RU | 327 RU
mAb14284 (antibody, V domains shown) VH: QITLKESGPTLVKPTQTLTLTCTFSGFSFSTSGVGVGWIRQPPGKTLEWLALIYWDDDKRYSPSLKSRLTITKDTSKNQVVLTMTNMDPVDTATYFCAHHGIPTIFGYWGQGALVTVSS VL: QSALTQPASVSGSPGQSITISCTGTSSDLGVFNYVSWYQQHPGKAPKLMIYEVTNRPSGVSNRFSGSKSGNTASLTISGLQAEDEADYYCSSYTTSSTVFGGGTKLTVLG [mAb14284, listing 2 of 2 here] | – | – | 659 RU | 482 RU
mAb14258 (antibody, V domains shown) VH: QLQLQESGPGLVKPSETLSLICTGSGDSISSSHYYWGWIRQPPGKGLEWIGSTYFSGSTYYNPSLKSRVSISVDTSKNQVSLKLISVTAADTAVYYCAREMGATLGDYWGPGTLVTVSS VL: QSVLTQPPSASGTPGQRVTISCSGSSSNIGNNYVYWYQQFPGTTPRLLIYRNNERPSGVPDRFSGSKSGTSASLVISGLRSEDEADYYCAAWDDSLSAHYVFGTGTKVTVLG [mAb14258, listing 2 of 2 here] | – | – | 392 RU | 333 RU
mAb14294 (antibody, V domains shown) VH: EVQLVESGGGLVQPGGSLRLSCAASGFTFSNHWMDWVRQAPGKGLVWVSRINSDGSSTDYADSVRGRFTMSRDNAKNTLYLQMSSLRAEDTAVYYCAREGMIFGAVIIPGWYFDLWGRGALVTVSS VL: EIVLTQSPGTLSLSPGERATLSCRASQSVSSSQLAWYQQKPGQAPRLLIYGASSRATGIPDRFSGSGSGTDFTLTISRLEPEDFAVYYCQQYDSFGQGTKLEIKR | – | – | 370 RU | 291 RU
mAb14283 (antibody, V domains shown) VH: QVQLQESGPGLVKPSGTLSLTCDVSGGSISSNNWWSWVRQRPGKGLQWIGEIYHNENTNYNPSLKSRVIMSIDKSKNQFSLKLTSVTAADTAVYYCARGDVLDWFDPWGQGTLVTVSS VL: QSALTQPASVSGSPGQSTTISCTGTSSDVGGYNYVSWYQQYPGKAPKLMIYDVTNRPSGVSHRFSGSKSGNTASLTISGLQAEDEADYYCSSYTSSSTVIFGGGTKLTVLG | – | – | 415 RU | 320 RU
mAb14235 (antibody, V domains shown) VH: QITLKESGPTLVKPTQTLTLTCTFSGFSLNTGGVGVGWIRQPPGNALEWLALIYWDDDKRYNPSLKTRLTISKDTSKNQVVLTMTNMDPVDTATYFCAHLTIAVIVDFWGQGTLVTVSS VL: QSALTQPASVSGSPGQSITISCTATSSDVGTYNYVSWFQHHPGKAPKLMIYEVTNRPSGVSNRFSGSKSGNTASLTISGLQAEDEADYYCSSYTTTSIVFGGGTKLTVLG | – | – | 308 RU | 243 RU
mAb14289 (antibody, V domains shown) VH: QVQLVQSGPEVKKPGASVKVSCKASGYTFTSYAISWVRQAPGQGLEWMGWISAYNGNTNYAQKLQGRVTMTTDTFTSTAYMELRSLRSDDTAVYYCAVPADHITFDYWGQGTLVTVSS VL: EIVLTQSPGTLSLSPGERATLSCRASQSVSSYLAWYQQKPGQAPRLLIHGASSRATGIPDRFSGSGSGTDFTLTISRLEPEDFAVYYCQQYGSSFLTFGGGTKVEIKR | – | – | 372 RU | 295 RU
mAb13458 (antibody, V domains shown) VH: EVQLVESGGGLVQPGRSLRLSCAASGFTFDDYAMHWVRQAPGKGLEWVSGISWNSGSIGYADSVKGRFTISRDNAKNSLYLQMNSLRAEDTALYYCAKDIGITTPYWGQGTLVTVSS VL: AIQMTQSPSSLSASVGDRVTITCRASQDIRNDLGWYQQKPGKAPKLLIYSASSLQTGVPSRFSGSGSGTDFTLTISSLHPEDFATYYCLQDYWYTWTFGQGTKVEIKR | – | – | 425 RU | 327 RU
mAb13459 (antibody, V domains shown) VH: EVQLVESGGGLVQPGRSLRLSCAASGFTFDDYAMHWVRQAPGKGLEWVSGISWNSGSIGYADSVKGRFTISRDNAKNSLYLQMNSLRAEDTALYYCAKDIGITTPYWGQGTLVTVSS VL: AIQMTQSPSSLSASVGDRVTITCRASQDIRNDLGWYQQKPGKAPKLLIYSASSLQTGVPSRFSGSGSGTDFTLTISSLHPEDFATYYCLQDYNYVWTFGQGTKVEIKR | – | – | 613 RU | –
mAb15150 (antibody, V domains shown) VH: EVQLVETGGGLIQPGGSLRLSCAAPGFIVSSNYMSWVRQAPGKGLEWVSLLYPGGSTYYADSVKGRFTISRDNSKNTLYLQMNSLRADDTAVYYCARVLPIVEDHFDYWGQGTLVTVSS VL: DIQLTQSPSFLSASVGDRVTITCRASQGMSSYLAWYQKKPGKAPKLLIYGATILQSGVPSRFSGSGSGTEFTLTISSLQPEDFATYYCQQLNSDPLYMYTFGQGTKLEIKR | – | – | 339 RU | –
